Measured values: the supplement of paper PMC12637763
Some of the results follow. Env chains of viruses from a treatment-interruption trial, translated from the printed DNA. IC50 / IC80 of two broadly neutralizing antibodies; lower = more sensitive virus; >50 µg/ml means not reached and <0.001 µg/ml is below the lowest dose. No active / inactive call.

B1: HIV-1 Env, reservoir clone (protein)
chain: MKAKETMKNYQHFWRWGIMLLGMLMICSAASQLWVTVYYGVPVWKEATTTLFCASDAKAYDTEVHNVWATHACVPTDPNPQEVVLGNVTEDFNMWKNNMVEQMHEDIISLWDQSLKPCVKITPLCVTLNCTEYSNATSTEWGQMEKGEIKNCSFNVTTNIKNKMQKEYALFYKLDVVPIDNSTNYRLIKCNTSAITQACPKVSFQPIPIHYCAPAGFAILKCNNKTFNGLGPCTNVSTVQCTHGIRPVVSTQLLLNGSLAEEEIVIRSENFSDNAKNIIVHLNTSIEIDCTRPNNNTRKSITIGPGRAFYATGSVIGNIRQAHCNISGEKWNKALKQIAIKLREQFGHNKTIIFNQSSGGDPEIVTHSFNCGGEFFYCNSTKLFNSTWHSNDTRNNTESNETIIIPCKIKQIINLWQEVGKAIYAPPISGPIRCSSNITGLLLTRDGGNISQTNETFRPGGGDMRDNWRSELYKYKVVKIEPLGVAPTKAKRRVVQRERRAVGTFGALFLGFLGAAGSTMGAASITLTVQARQLLSGIVQQQNNLLKAIEAQQHLLQLTVWGIKQLQARVLAVERYLKDQQLLGLWGCSGKLICTTTVPWNASWSNKSLEQIWENMTWMQWEKEIDNYTGIIYSLISESQLQQEKNEKELLELDKWASLWTWFDITNWLWYIKIFIMIVGGLIGLRIVFAVLSIVNKVRKGYSPLSFQTRLPTPRGPDRPEGIEGEGGERGRDTSIRLVDGFLALIWDDLRNLCLFSYHHLRDLILIVVRTVELLGRRGWELLKYWWNLLKYWSQELKKSAVSLFNAAAIAVAEGTDRVIEVVQRAGRGILHVPRRIRQGLERALQ
B2: HIV-1 Env, reservoir clone (protein)
chain: MKAKETRKNYQHFWRWGIMLLGMLMICSAASQLWVTVYYGVPVWKEATTTLFCASDAKAYDTEVHNVWATHACVPTDPNPQEVVLGNVTEDFNMWKNNMVEQMHEDIISLWDQSLKPCVKITPLCVTLNCTEYSNATSTIGGQTEKGEIKNCSFNVTTNIKNKMQKEYALFYNLDVVPIDNSTNYRLIKCNTSAITQACPKVSFQPIPIHYCAPAGFAILKCNNKTFNGLGPCTNVSTVQCTHGIRPVVSTQLLLNGSLAEEEIVIRSENFSDNAKNIIVHLNASIEINCARPNNNTRKSITIGPGRAFYATGSVIGNIRQAHCNISGEKWNKALKQIAIKLREQFGHNKTIIFNQSSGGDPEIVTHSLNCGGEFFYCNSTKLFNSTWHSNDTRNNTESNETIIIPCKIKQIINLWQEVGKAIYAPPISGPIRCSSNITGLLLTRDGGNISQTNETFRPGGGDMRDNWRSELYKYKVVKIEPLGVAPTKAKRRVVQRERRAVGTFGALFLGFLGTAGSTMGAASITLTVQARQLLSGIVQQQNNLLKAIEAQQHLLQLTVWGIKQLQARVLAVERYLKDQQLLGLWGCSGKLICTTTVPWNASWSNKSLEQIWENMTWMQWEKEIDNYTGIIYSLISESQLQQEKNEKELLELDKWASLWTWFDITNWLWYIKIFIMIVGGLIGLRIVFAVLSIVNKVRKGYSPLSFQTRLPTPRGPDRPEGIEGEGGERGRDTSIRLVDGFLALIWDDLRNLCLFSYHHLRDLILIVVRTVELLGRRGWELLKYWWNLLKYWSQELKKSAVSLFNAAAIAVAEGTDRVIEVVQRAGRGILHVPRRIRQGLERALQ
B3: HIV-1 Env, reservoir clone (protein)
chain: MRVRGIRKNYQRLWGWGITLLGMLMICSATEKMWVTVYYGVPVWKEATTTLFCASDAKAYDKEVHNVWATHACVPTDPSPQEVGLENVTETFNMWKNNMVDQMHEDIMSLWDQSLKPCVKLTPLCVTLNCTDATKVNASEINNSSLGEMKNCSFNITTSIRDKIQRTYAYFYKLDLVPIDTNNTSYRLISCNTSVITQACPKVSFEPIPIHYCAPAGFAILKCRDKKFNGKGECRNVSTVQCTHGIRPVVSTQLLLNGSLAEEEVVIRSNNFTDNAKTIIVQLNQSVQINCTRPNNNRRKSINIGPGRAFYAAGDIIGDIRQAHCNISRTKWNNTLRQIVEKLKEQFPNKTIVFNQSSGGDPEIVMHSFNCGGEFFFCDTTKLFNSTWSNNGTWNSTNSTVGNDTITLPCRMKQIINMWQEVGKAMYAPPISGQIRCSSNITGLLLTRDGGKVNSTNETFRPGGGDMRDNWRSELYKYKVVKIKPLGIAPTKAKRRVVQREKRAVGIGAVFLGFLGAAGSTMGAASVTLTVQARLLLSGIVQQQNNLLRAIEAQQHLLQLTVWGIKQLQARVLAVERYLQDQQLLGIWGCSGKLICTTAVPWNTSWSNKTYKGIWENMTWMQWEKEIDNYTGLIYNLIEESQNQQEKNEQELLELDKWASLWNWFSITQWLWYIKLFVMIVGGLIGLRIVMTILSIVNRVRKGYSPLSFQTHLPTPRGPDRPEGTEEEGGERERDRSERLVNGFLALIWDDLRSLCLFSYHRLRDLILVVTRIVELLGRRGREVLKYWWNLLQYWGQELRNSTVSLLDAIAIAVAGGTDRIIEGVQRVCRAIRHIPRRIRQGAERALV
B4: HIV-1 Env, reservoir clone (protein)
chain: MRAKGIRKNCQDLLKGGILLLGILMICSAAGNLWVTVYYGVPVWKDATTTLFCASDAKGYSKEAHNVWATHACVPTDPDPREVVMGNVTENFNMWKNDMVDQMHEDIISLWDQSLKPCVKLTPLCVTLNCTNLNITNLNNTNSNTSNPNNNTSIENGSEEMKNCSFNVTTIKGKYQQEYAILYKLDLVPIDKNDNTSYMLINCNTSVITQACPKISFEPIPIHYCAPAGFAILKCNNKTFNGTGPCTNVSSVQCTHGIRPVVSTQLLLNGSLAEEEVVIRSENFTDNAKTIIVQLKDPIQINCTRPSNNTRKSIHIGPGRAFYATGQIIGDIRQAYCNISKEQWNEALNQTVRKLREQFGNKTIFFNQSSGGDPEIVMHTFNCGGEFFYCNTTQLFNSTWYDTTNSTDSNNGTIKLPCRIKQVINRWQEVGKAMYAPPIRGSIRCSSNITGLLLVRDGGNNNSSNSSETFRPGGGNMKDNWRSELYKYKVVKIEPLGVAPTKAKRRVVQRERRAVTLGAMFLGFLGTAGSTMGAASLTLTVQARQLLSGIVQQQSNLLRAIEVHQHMLQLTVWGIKQLQARVLAVERYLKDQQLLGIWGCSGKLICTTTVPWNASWSKKNLSEIWDNMTWIEWEREIQNYTEEIYSLIEKSQNQQAKNEQELLELDKWANLWNWFDITNWLWYIKIFIMIVGGLIGLRIVFTVLSIVNRVRQGYSPLSFQTRLPTQRGPDRPEGTGEEGGERDRDTSRPLVDGFLAIIWVDLRSLFLFSYHRLRDLLLIVTRIVETLGRRGWELLKYWWNLLQYWSQELKNSAISLLNATAIAVAEGTDRVIELIQRAGRAIIHIPRRIRQGLESALL
B5: HIV-1 Env, reservoir clone (protein)
chain: MKAKETMKNYQHLWRWGIMLLGMLMICSAASQLWVTVYYGVPVWKEATTTLFCASDAKAYDTEVHNVWATHACVPTDPNPQEVVLGNVTEDFNMWKNNMVEQMHEDIISLWDQSLKPCVKITPLCVTLNCTEYSNATSTIGGQTEKGEIKNCSFNVTTNIKNKMQKEYALFYNLDVVPIDNSTNYRLIKCNTSAITQACPKVSFQPIPIHYCAPAGFAILKCNNKTFNGLGPCTNVSTVQCTHGIRPVVSTQLLLNGSLAEEEIVIRSENFSDNAKNIIVHLNASIEIDCTRPNNNTRKSITIGPGRAFYATGSVIGNIRQAHCNISGEKWNKALKQIAIKLREQFGHNKTIIFNQSSGGDPEIVTHSFNCGGEFFYCNSTKLFNSTWHSNDTRNNTTESNETIIIPCKIKQIINLWQEVGKAIYAPPISGPIRCSSNITGLLLTRDGGNISQTNETFRPGGGDMRDNWRSELYKYKVVKIEPLGVAPTKAKRRVVQRERRAVGTFGALFLGFLGTAGSTMGAASITLTVQARQLLSGIVQQQNNLLKAIEAQQHLLQLTVWGIKQLQARVLAVERYLKDQQLLGLWGCSGKLICTTTVPWNASWSNKSLEQIWENMTWMQWEKEIDNYTGIIYSLISESQLQQEKNEKELLELDKWASLWTWFDITNWLWYIKIFIMIVGGLIGLRIVFAVLSIVNKVRKGYSPLSFQTRLPTPRGPDRPEGIEGEGGERGRDTSIRLVDGFLALIWDDLRNLCLFSYHHLRDLILIVVRTVELLGRRGWELLKYWWNLLKYWSQELKKSAVSLFNAAAIAVAEGTDRVIEVVQRAGRGILHVPRRIRQGLERALQ
B6: HIV-1 Env, reservoir clone (protein)
chain: MKVRGMKRNYQHLWGWGTMLLFWMIIMCKAAGNLWVTVYYGVPVWRDAETTLFCASDAKAYDKEVHNVWATHACVPTDPNPQEVRLENVTEHFNMWENNMVEQMQTDIISLWDQSLKPCVKLTPLCVTLECTEPKLNSSTSNNSLSSTSNNSQYEEMKNCSFNMTTELRDKQKKVYSLFYKLDIVETDNNSSRYRLINCNTSTLTQACPKVTFEPIPIYYCAPAGFAILKCNDPQFNGTGPCTNVSTVQCTHGIKPVVSTQLLLNGSLAKEQVMIRSKNITDNSKTIIVQLKKPVNITCIRPGNNTRTSIRIGPGQAFYATGEITGDIRKAHCNVSRAEWNRTLQEISTQLQGYFNNKTIIFKNSSGGDLEVTTHSFNCGGEFFYCNTTKLFNSTWYGNETVINGTEASENITLQCRIKQIINMWQRVGQAMYAPPIRGEIRCESNITGLLLTRDGGGGNSSNNETFRPTGGDMRDNWRSELYKYKVVQVEPIGIAPTPAKRRVVEREKRAVGLGAAFLGFLGAAGSTMGAASLTLTVQARQLLSGIVQQQSNLLRAIEAQQHLLKLTVWGIKQLQARVLAVERYLRDQQLLGIWGCSGKLICTTAVPWNSSWSNKSYKDIWDNMTWMQWDKEVLNYTSIIYSLLEESQNQQEKNEQDLLALDKWASLWSWFDISKWLWYIKIFIMIVGGLIGLRIVFTVLSIINRVRQGYSPLSLQTLTPHPEEPDRPGRINEEGGEQDKGRSIRLVNGFLALAWDDLRSLCLFSYHRLRDFISIAARTVELLGRSSLKGLRLGWEGLKYLGNLLGYWSRELKNSAINLIDTIAIAVAGWTDRVIEIVQGSCRAIRNIPRRIRQGAEKALQ

Biological target: antibody 10-1074
Experiment: neutralization IC50; higher = virus less sensitive to the antibody
Method: (§1)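 Pseudovirus bearing the Env chain mixed with antibody, from 50 µg/ml in fivefold dilutions, on TZM-bl reporter cells, in duplicate.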

| Binder | neutralization IC50 |
| --- | --- |
| B1 | < 0.001 µg/mL |
| B2 | < 0.001 µg/mL |
| B3 | 0.001 µg/mL |
| B4 | 10 µg/mL |
| B5 | < 0.001 µg/mL |
| B6 | 0.078 µg/mL |

Biological target: antibody 3BNC117
Experiment: as above
Method: as §1

| Binder | neutralization IC50 |
| --- | --- |
| B1 | 0.036 µg/mL |
| B2 | 0.034 µg/mL |
| B3 | 0.01 µg/mL |
| B4 | 0.204 µg/mL |
| B5 | 0.048 µg/mL |
| B6 | 0.262 µg/mL |

Biological target: antibody 10-1074
Experiment: neutralization IC80; higher = virus less sensitive to the antibody
Method: as §1

| Binder | neutralization IC80 |
| --- | --- |
| B1 | 0.004 µg/mL |
| B2 | < 0.001 µg/mL |
| B3 | 0.005 µg/mL |
| B4 | > 50 µg/mL |
| B5 | < 0.001 µg/mL |
| B6 | 1.3 µg/mL |

Biological target: antibody 3BNC117
Experiment: as above
Method: as §1

| Binder | neutralization IC80 |
| --- | --- |
| B1 | 0.226 µg/mL |
| B2 | 0.121 µg/mL |
| B3 | 0.017 µg/mL |
| B4 | 0.57 µg/mL |
| B5 | 0.175 µg/mL |
| B6 | 0.615 µg/mL |
